This note sets out measurements from BindingDB's records for doi:10.7270/Q29Z93G0 (Nmmlsc, 2012).

The chains behind the UniProt entries cited, without tags or fusion partners. Residues count along the entry.
UniProt P0DPI1, 2-448 limits assumed: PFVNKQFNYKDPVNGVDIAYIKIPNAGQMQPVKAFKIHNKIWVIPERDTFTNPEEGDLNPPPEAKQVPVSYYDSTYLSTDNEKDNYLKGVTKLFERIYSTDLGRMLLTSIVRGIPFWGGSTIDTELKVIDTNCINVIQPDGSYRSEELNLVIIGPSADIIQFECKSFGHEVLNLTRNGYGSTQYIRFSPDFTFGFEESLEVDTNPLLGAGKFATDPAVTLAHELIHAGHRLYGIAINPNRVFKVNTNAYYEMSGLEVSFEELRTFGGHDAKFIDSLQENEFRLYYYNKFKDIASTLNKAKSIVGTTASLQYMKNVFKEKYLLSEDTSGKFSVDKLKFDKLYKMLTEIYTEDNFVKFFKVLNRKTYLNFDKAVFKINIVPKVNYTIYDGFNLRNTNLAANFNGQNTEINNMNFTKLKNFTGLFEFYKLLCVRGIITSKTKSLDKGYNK

SMILES strings stand for the structures. pEC50: −log10 of the molar value. Where only a bound is given, the exact number is not on record here.

The target in this assay is Botulinum neurotoxin type A (Clostridium botulinum (strain Hall / ATCC 3502 / NCTC 13319 / Type A), UniProt P0DPI1).

Compound `Fc1ccccc1C1CC(c2ccccc2)=NN1c1ccccc1` (stereo unspecified) [VU0467047-1] gave a pEC50 of under 4.70.

As a reminder, the pEC50 is the EC50 on a negative log10 scale, so that one unit is a factor of ten. A higher pEC50 goes with a low EC50.
